A mixed list of measured activities; the numbers were collected in NIAID ChemDB.

All rows: tests in culture; organism: Human cytomegalovirus; method: plaque count; endpoint: EC50

Rows are shuffled and stem from different studies. An empty or dashed field is not shown. ECn: concentration that inhibits the pathogen or its effect by n%.

compound,cell line,strain or isolate,value
OC[C@H]1O[C@@H](n2c(Cl)nc3cc(Cl)c(Cl)cc32)[C@H](O)[C@@H]1O,HFF,Isolate D10 (D344E mutation),17 µM
Nc1ccn(C[C@@H](CO)OCP(=O)(O)O)c(=O)n1,HFF,TOWNE,0.16 µg/mL
O[C@@H]1[C@H](O)CO[C@H]1n1c(Cl)nc2cc(Cl)c(Cl)cc21,HFF,TOWNE,0.61 µM
Nc1ccn(C[C@@H](CO)OCP(=O)(O)O)c(=O)n1,HFF,DAVIS,0.4 µM
Nc1nc2c(ncn2COC(CO)CO)c(=O)[nH]1,HFF,VR4955R (drug-resistant),700 µM
CC(C)Nc1nc2cc(Cl)c(Cl)cc2n1[C@H]1O[C@@H](CO)[C@H](O)[C@@H]1O,MRC-5,C8803,0.21 µM
CCCCCCCC/C=C\CCCCCCCOCCCOP(=O)(O)CO[C@H](CO)Cn1ccc(N)nc1=O,HFF,GDGrP53,0.03 µM
Nc1nc2c(ncn2COC(CO)CO)c(=O)[nH]1,MRC-5,PC92 (ganciclovir- foscarnet-susceptible),2.42 µM
Cn1cc(C(=O)NCc2ccc(Cl)cc2)c(=O)c2cc(CN3CCOCC3)ccc21,HFF,C8708/17-1-1,3.7 µM
OC[C@H]1O[C@@H](n2c(Cl)nc3cc(Cl)c(Cl)cc32)[C@H](O)[C@@H]1O,-,C4 (D341E),57 µM
Nc1ccn(C[C@H]2COP(=O)(O)CO2)c(=O)n1.O=C(O)P(=O)(O)O,MRC-5,PAAR,0.93 µM
Cn1cc(C(=O)NCc2ccc(Cl)cc2)c(=O)c2cc(CN3CCOCC3)ccc21,HFF,LY,0.7 µM
CC/C=C\Cn1c(=O)sc2c(=O)[nH]c(N)nc21,-,P8 (DHPG-S),<0.4 µM
OC[C@H]1O[C@@H](n2c(Br)nc3cc(Cl)c(Cl)cc32)[C@H](O)[C@@H]1O,HFF,C4 (BDCRB-resistant),33 µM
O=C(NCc1ccc(Cl)cc1)c1cn2c3c(cc(CN4CCOCC4)cc3c1=O)OC(c1cccnc1)C2,HFF,1117/R (CDV GCV-resistant),1.5 µM
CCCCCCCCCCCCCCCCCCOCCOP1(=O)CO[C@@H](Cn2ccc(N)nc2=O)CO1,MRC-5,C9208/5-4-2,0.001 µM
O[C@@H]1[C@H](O)[C@H](O)CO[C@H]1n1c(Br)nc2cc(Cl)c(Cl)cc21,MRC-5,4760REC (V715M),1.3 µM
CCCCCCCCCCCCOCCCOP(=O)(O)CO[C@H](CO)Cn1ccc(N)nc1=O,HFF,VR4760 (foscarnet-resistant),0.02 µM
Nc1ccn(C[C@@H](CO)OCP(=O)(O)O)c(=O)n1,HEL,DER521 (ganciclovir cidofovir-resistant),3.23 µM
CCCCCCCCCCCCCCCCOP(=O)(O)CO[C@H](CO)Cn1ccc(N)nc1=O,HFF,1117-R,0.01 µM
O[C@@H]1[C@H](O)[C@H](O)CO[C@H]1n1c(Br)nc2cc(Cl)c(Cl)cc21,HFF,GDGRP53 (drug-resistant),2.9 µM
Nc1ccn(C[C@@H](CO)OCP(=O)(O)O)c(=O)n1,MRC-5,AD169 (ganciclovir foscarnet-susceptible),0.32 µM
Nc1nc2c(ncn2COC(CO)CO)c(=O)[nH]1,MRC-5,C9003,1 µM
CCCCCCCC/C=C\CCCCCCCCOCCOP(=O)(O)CO[C@H](CO)Cn1ccc(N)nc1=O,HFF,DAVIS,0.005 µM
Nc1nc2c(ncn2/C=C2/CC2(CO)CO)c(=O)[nH]1,HFF,GDGRK17 (ganciclovir- foscarnet-resistant),2.4 µM
C[C@@H]1O[C@@H](n2c(Cl)nc3cc(Cl)c(Cl)cc32)[C@H](O)[C@@H]1O,-,48041 (GCV-susceptible),0.82 µM
CN(C)c1cccc2c(S(=O)(=O)Nc3ccc(NC(=O)C(C)(C)CO)cc3)cccc12,-,DAVIS,0.52 µM
O=C(NCc1ccc(Cl)cc1)c1c[nH]c2c(F)cccc2c1=O,-,759rD100,2.6 µM
COc1cccc(N2CCN(C3=Nc4c(F)cccc4[C@H](CC(=O)O)N3c3cc(C(F)(F)F)ccc3OC)CC2)c1,-,Clinical isolate 6,0.0009 µM
Nc1nc2c(ncn2COC(CO)CO)c(=O)[nH]1,-,48041 (GCV-susceptible),27 µM
Nc1ccn(C[C@H]2COP(=O)(O)CO2)c(=O)n1,MRC-5,PC92 (ganciclovir- foscarnet-susceptible),0.45 µM
O=C(NCc1ccc(Cl)cc1)c1c[nH]c2ccc(C#CCO)cc2c1=O,-,GDGrP53,0.3 µM
O=C(NCc1ccc(Cl)cc1)c1c[nH]c2ccc(CCCO)cc2c1=O,-,SAL,0.7 µM
Nc1ccn(C[C@H]2COP(=O)(O)CO2)c(=O)n1,MRC-5,C8805/37-1-1 (drug-resistant mutant),0.96 µM
C[C@H]1O[C@@H](n2c(Br)nc3cc(Cl)c(Cl)cc32)[C@H](O)[C@@H]1O,HFF,TOWNE,0.06 µM
OC[C@H]1O[C@@H](n2c(Br)nc3cc(Cl)c(Cl)cc32)[C@H](O)[C@@H]1O,HFF,D10 (BDCRB- and maribavir-resistant),11.8 µM
Nc1nc(NC2CC2)c2ncn(C=C3CC3CO)c2n1,HFF,C8706/13-1-1,7.3 µM
CCCCCCCCCCCCCCCCOCCCOP(=O)(O)CO[C@H](CO)Cn1ccc(N)nc1=O,MRC-5,GDGP53 (drug-resistant mutant),0.02 µM
Nc1nc2c(ncn2C=C2CC2CO)c(=O)[nH]1,HFF,C9208/3-3-1,6.9 µM
Nc1nc2c(ncn2C=C2CC2CO)c(=O)[nH]1,-,AD169,2.4 µM
Nc1nc2c(ncn2C[C@@H]2CC[C@@H](P(=O)(O)O)O2)c(=O)[nH]1,HFF,TOWNE,0.08 µg/mL
CNc1cccc2c(S(=O)(=O)Nc3ccc(NC(=O)C(C)(C)CF)cc3)cccc12,-,Ganciclovir-resistant,3.4 µM
NC(=O)c1c(Cl)c(-c2cccnc2)n2c1CCCC2,HEL,DER648 (ganciclovir cidofovir-resistant),0.0012 µM
CC(C)Nc1nc2cc(Cl)c(Cl)cc2n1[C@H]1O[C@@H](CO)[C@H](O)[C@@H]1O,HFF,C4 (BDCRB-resistant),100 µM
Nc1ccn(C=C2C[C@H]2CO)c(=O)n1,HFF,RCdelta97,75 µM
CCCCCCCCCCCCCCCCCOC[C@H](COP1(=O)CO[C@@H](Cn2ccc(N)nc2=O)CO1)OCc1ccccc1,HFF,AD169,0.01 µM
OC[C@H]1O[C@@H](n2c(Br)nc3cc(Cl)c(Cl)cc32)[C@H](O)[C@@H]1O,HFF,RCMP97 (drug-resistant),1 µM

For reference, 6 entries again:

compound	cell line	strain or isolate	value
O[C@@H]1[C@H](O)CO[C@H]1n1c(Cl)nc2cc(Cl)c(Cl)cc21	HFF	TOWNE	0.61 µM
Nc1ccn(C[C@H]2COP(=O)(O)CO2)c(=O)n1	MRC-5	PC92 (ganciclovir- foscarnet-susceptible)	0.45 µM
CCCCCCCCCCCCOCCCOP(=O)(O)CO[C@H](CO)Cn1ccc(N)nc1=O	HFF	VR4760 (foscarnet-resistant)	0.02 µM
OC[C@H]1O[C@@H](n2c(Cl)nc3cc(Cl)c(Cl)cc32)[C@H](O)[C@@H]1O	HFF	Isolate D10 (D344E mutation)	17 µM
OC[C@H]1O[C@@H](n2c(Br)nc3cc(Cl)c(Cl)cc32)[C@H](O)[C@@H]1O	HFF	D10 (BDCRB- and maribavir-resistant)	11.8 µM
CC(C)Nc1nc2cc(Cl)c(Cl)cc2n1[C@H]1O[C@@H](CO)[C@H](O)[C@@H]1O	HFF	C4 (BDCRB-resistant)	100 µM